Experimental data taken from ChEMBL document CHEMBL1145474, “Selective phosphorylation of antiviral drugs by vaccinia virus thymidine kinase” (Antimicrob Agents Chemother, 2007).

Organism: Homo sapiens

Compound	Km [µM]
N#CC1=C(N)OC2=C(C(=O)CCC2)C1c1cn([C@H]2C[C@H](O)[C@@H](CO)O2)c(=O)[nH]c1=O (some centres not stated)	> 200
Nc1ccn(C[C@@H](CO)OCP(=O)(O)O)c(=O)n1	> 159
